Measured values from several laboratories, pooled; numbers as filed in NIAID ChemDB.

All rows: whole-cell or culture tests; organism: HIV-1; read by: p24 / ELISA; endpoint: EC50

Conditions beyond the fields shown may differ between rows. ECn: concentration that inhibits the pathogen or its effect by n%. a–b is a range or a potency band. An empty or dashed field is not shown.

smiles,setting,cells,changes,strain or isolate,value
Cc1ccc(C(=O)NC(C)(C)C(=O)NC[C@H](O)[C@@]23CC[C@]4(C)[C@H](CC[C@@H]5[C@@]6(C)CC[C@H](OC(=O)[C@H]7C[C@@H](C(=O)O)C7(C)C)C(C)(C)[C@@H]6CC[C@]54C)C2=C(C(C)C)C(=O)C3)cn1,-,MT-2,-,92HT599,<1 µM
Cn1c2ccccc2c(=O)c2c(O)cccc21,-,OM-10.1,-,IIIB,2 µg/mL
CCOC(=O)C12C(c3ccc(Cl)cc3)C3(C(=O)OCC)C4(C)OC1(C)C1(C(=O)OCC)C(c5ccc(Cl)cc5)C4(C(=O)OCC)C3(C)OC21C,-,MT-4,-,IIIB,0.03469 µM
COP(=O)(c1cc(C)cc(CCC#N)c1)c1c(C(N)=O)[nH]c2ccc(Cl)cc12,-,MT-4,-,NL4-3,0.0017 µM
CC1=C(C(=O)OCc2ccccc2)C(c2ccc(C)cc2)NC(=O)N1,-,HEK293T,-,-,>100 µM
CC(C)C1=C2[C@H]3CC[C@@H]4[C@@]5(C)CC[C@H](OC(=O)[C@H]6C[C@@H](C(=O)O)C6(C)C)C(C)(C)[C@@H]5CC[C@@]4(C)[C@]3(C)CC[C@@]2([C@@H](O)CNC(=O)C(C)(C)NC(=O)c2cncnc2)CC1=O,-,MT-2,-,92HT599,<1 µM
CC1([C@@H]2CC[C@]3(NC(=O)NC4C=C[C@H](CO)C4)CC[C@]4(C)[C@H](CC[C@@H]5[C@@]6(C)CC=C(c7ccc(C(=O)O)cc7)C(C)(C)[C@@H]6CC[C@]54C)[C@@H]23)CC1,-,MT-2,-,92HT599,≤0.01 µM
CCOC(=O)C12C(c3ccc(NC(C)=O)cc3)C3(C(=O)OCC)C4(C)OC1(C)C1(C(=O)OCC)C(c5ccc(NC(C)=O)cc5)C4(C(=O)OCC)C3(C)OC21C,-,MT-4,-,IIIB,0.05608 µM
CC(C)C1=C2[C@H]3CC[C@@H]4[C@@]5(C)CC[C@H](OC(=O)[C@H]6C[C@@H](C(=O)O)C6(C)C)C(C)(C)[C@@H]5CC[C@@]4(C)[C@]3(C)CC[C@@]2(CCNCC(C)(C)NC(=O)c2ccc(C(F)(F)F)cc2)CC1=O,-,MT-2,-,92HT599,<1 µM
CC(C)NC(=O)[C@H]1C[C@@H](NC(=O)N[C@]23CC[C@@H](C4(C)CC4)[C@@H]2[C@H]2CC[C@@H]4[C@@]5(C)CC=C(c6ccc(C(=O)O)cc6)C(C)(C)[C@@H]5CC[C@@]4(C)[C@]2(C)CC3)C1(C)C,-,MT-2,-,92HT599,≤0.01 µM
Cc1cn([C@H]2C[C@H](N=[N+]=[N-])[C@@H](CO)O2)c(=O)[nH]c1=O,-,PBMC,-,LAV,0.072 µM
CCCCCCCCCCCCCCCCCCOCCOP(=O)(O)CO[C@H](CO)Cn1ccc(N)nc1=O,-,PBMC,-,LAI,0.013 µM
O=S(=O)(c1cccc2cnccc12)N1CCNCC1,-,MOLT-4/IIIB + MOLT-4,-,IIIB,>13.7 µg/mL
CC1([C@@H]2CC[C@]3(NC(=O)N4CCC[C@H]4c4ncc(-c5ccc(F)cc5)[nH]4)CC[C@]4(C)[C@H](CC[C@@H]5[C@@]6(C)CC=C(c7ccc(C(=O)O)cc7)C(C)(C)[C@@H]6CC[C@]54C)[C@@H]23)CC1,-,MT-2,-,92HT599,≤0.01 µM
CC(C)C1=C2[C@H]3CC[C@@H]4[C@@]5(C)CC[C@H](OC(=O)[C@H]6C[C@@H](C(=O)O)C6(C)C)C(C)(C)[C@@H]5CC[C@@]4(C)[C@]3(C)CC[C@@]2(NC(=O)C(C)(C)NC(=O)c2ccc(Cl)cc2OCCN(C)C)CC1=O,-,MT-2,-,92HT599,<0.003 µM
CCCCCCCCCCCCCCCCCCOCCOP(=O)(O)CO[C@H](CO)Cn1cnc2c(N)ncnc21,-,PBMC,M41L D67N K70R T215Y K219Q,NRTI-MDR,0.005 µM
COc1cc2c(OC3OC(C)C(OC4OC(CO)C(O)C(O)C4O)C(O)C3OC(C)=O)c3c(c(-c4ccc5c(c4)OCO5)c2cc1OC)C(=O)OC3,-,PBMC,-,BaL,0.015 µM
COc1cccc2[nH]c3ccccc3c(=O)c12,-,OM-10.1,-,IIIB,>17 µg/mL
C=C(C)[C@@H]1CC[C@]2(NC(=O)N3CCC[C@H]3c3ncc(-c4ccccc4)[nH]3)CC[C@]3(C)[C@H](CC[C@@H]4[C@@]5(C)CC=C(c6ccc(C(=O)O)cc6)C(C)(C)[C@@H]5CC[C@]43C)[C@@H]12,-,MT-2,-,92HT599,0.01001–0.05 µM
CC(C)OC(=O)OCOP(=O)(CO[C@H](C)Cn1cnc2c(N)ncnc21)OCOC(=O)OC(C)C,-,C8166,-,KM018,0.00384 µM
COc1ccc(C(=O)NCC[C@@]23CC[C@]4(C)[C@H](CC[C@@H]5[C@@]6(C)CC[C@H](OC(=O)[C@H]7C[C@@H](C(=O)O)C7(C)C)C(C)(C)[C@@H]6CC[C@]54C)C2=C(C(C)C)C(=O)C3)cc1,-,MT-2,-,92HT599,<1 µM
CC1([C@@H]2CC[C@]3(NC(=O)NC(CO)CO)CC[C@]4(C)[C@H](CC[C@@H]5[C@@]6(C)CC=C(c7ccc(C(=O)O)cc7)C(C)(C)[C@@H]6CC[C@]54C)[C@@H]23)CC1,-,MT-2,-,92HT599,≤0.01 µM
CC(C)C1=C2[C@H]3CC[C@@H]4[C@@]5(C)CC[C@H](OC(=O)[C@H]6C[C@@H](C(=O)O)C6(C)C)C(C)(C)[C@@H]5CC[C@@]4(C)[C@]3(C)CC[C@@]2([C@@H](O)CNCC(C)(C)NC(=O)c2ccc(N)nc2)CC1=O,-,MT-2,-,92HT599,<1 µM
CC1([C@@H]2CC[C@]3(NC(=O)N4CC(O)C4)CC[C@]4(C)[C@H](CC[C@@H]5[C@@]6(C)CC=C(c7ccc(C(=O)O)cc7)C(C)(C)[C@@H]6CC[C@]54C)[C@@H]23)CC1,-,MT-2,-,92HT599,≤0.01 µM
CN[C@@H]1[C@H](O[C@@H]2OC[C@@H](O)[C@H](O)[C@H]2O)[C@@H](O)[C@H](O[C@H]2c3cc(C)c(C(=O)N[C@H](C)C(=O)O)c(O)c3-c3c(cc4c(c3O)C(=O)c3cc(OC)cc(O)c3C4=O)[C@@H]2O)O[C@@H]1C,-,PBMC,-,IIIB,3.3 µM
CCCCCCCCCCCCCCCCCCOCCOP(=O)(O)CO[C@H](CO)Cn1cnc2c(N)nc(N)nc21,-,PBMC,M41L T69SS L74V M184V L210W,NRTI-MDR,0.008 µM
CC(C)C1=C2[C@H]3CC[C@@H]4[C@@]5(C)CC[C@H](OC(=O)[C@H]6C[C@@H](C(=O)O)C6(C)C)C(C)(C)[C@@H]5CC[C@@]4(C)[C@]3(C)CC[C@@]2(CC(=O)NCC(C)(C)NC(=O)c2ccc(N3CCCCC3)cn2)CC1=O,-,MT-2,-,92HT599,<1 µM
O=S(=O)([O-])OC[C@@H]1C[C@H](O)[C@@H](OS(=O)(=O)[O-])[C@H](O[C@H]2[C@H](O)[C@@H](O)[C@H](O[C@@H]3OC[C@@H](O[C@H]4[C@@H](OS(=O)(=O)[O-])[C@@H](OS(=O)(=O)[O-])[C@H](O)O[C@@H]4CO)[C@H](O)[C@H]3O)O[C@@H]2CO)O1,"clinical isolate, multidrug-resistant",PBMC,-,Clinical isolate,1.61 µg/mL
COc1cc(OC)c2c(=O)c3ccccc3n(C)c2c1,-,OM-10.1,-,IIIB,3.2 µg/mL
CCOC(=O)C12C(c3ccc(F)c(F)c3)C3(C(=O)OCC)C4(C)OC1(C)C1(C(=O)OCC)C(c5ccc(F)c(F)c5)C4(C(=O)OCC)C3(C)OC21C,-,MT-4,-,IIIB,0.02857 µM
CC(C)C1=C2[C@H]3CC[C@@H]4[C@@]5(C)CC[C@H](OC(=O)[C@H]6C[C@@H](C(=O)O)C6(C)C)C(C)(C)[C@@H]5CC[C@@]4(C)[C@]3(C)CC[C@@]2(NC(=O)C(C)(C)NC(=O)c2ccc(N3CCC(N4CCOCC4)CC3)cc2)CC1=O,-,MT-2,-,92HT599,<0.003 µM
COc1cccc2c1c(=O)c1ccccc1n2C,-,OM-10.1,-,IIIB,8.8 µg/mL
C=C(C)[C@@H]1CC[C@]2(NC(=O)N3CCC(OCCN4CCOCC4)CC3)CC[C@]3(C)[C@H](CC[C@@H]4[C@@]5(C)CC=C(c6ccc(C(=O)O)cc6)C(C)(C)[C@@H]5CC[C@]43C)[C@@H]12,-,MT-2,-,92HT599,≤0.01 µM
COCCCn1c(=O)nc(-c2ccc(N3CCN(C)CC3)nc2)c2oc3ccc(-c4cnn(C)c4)cc3c21,-,C8166,-,-,0.0015 µM
Cn1c2ccccc2c(=O)c2c(O)cccc21,-,PBMC,-,IIIB,1.4 µg/mL
COCCOc1ccc(C(=O)NC(C)(C)C(=O)N[C@@]23CC[C@]4(C)[C@H](CC[C@@H]5[C@@]6(C)CC[C@H](OC(=O)[C@H]7C[C@@H](C(=O)O)C7(C)C)C(C)(C)[C@@H]6CC[C@]54C)C2=C(C(C)C)C(=O)C3)cc1,-,MT-2,-,92HT599,<0.003 µM
COc1ccc(O)c2c(=O)c3ccccc3n(C)c12,-,OM-10.1,-,IIIB,>16 µg/mL
CC1=C(C(=O)OCc2ccccc2)C(c2ccccc2O)NC(=O)N1,-,HEK293T,-,-,>100 µM
CCOC(=O)C12C(c3ccc(Cl)c(Cl)c3)C3(C(=O)OCC)C4(C)OC1(C)C1(C(=O)OCC)C(c5ccc(Cl)c(Cl)c5)C4(C(=O)OCC)C3(C)OC21C,-,MT-4,-,IIIB,0.106 µM
CC(C)C1=C2[C@H]3CC[C@@H]4[C@@]5(C)CC[C@H](OC(=O)[C@H]6C[C@@H](C(=O)O)C6(C)C)C(C)(C)[C@@H]5CC[C@@]4(C)[C@]3(C)CC[C@@]2([C@@H](O)CN(CCN(C)C)C(=O)c2cccc(Cl)c2)CC1=O,-,MT-2,-,92HT599,<1 µM
CCOC(=O)C12C(c3ccc(OC)cc3)C3(C(=O)OCC)C4(C)OC1(C)C1(C(=O)OCC)C(c5ccc(OC)cc5)C4(C(=O)OCC)C3(C)OC21C,-,MT-4,-,IIIB,0.02789 µM
CC(C)C1=C2[C@H]3CC[C@@H]4[C@@]5(C)CC[C@H](OC(=O)[C@H]6C[C@@H](C(=O)O)C6(C)C)C(C)(C)[C@@H]5CC[C@@]4(C)[C@]3(C)CC[C@@]2(NC(=O)C(C)(C)NC(=O)c2ccc(CN3CCNCC3)cc2)CC1=O,-,MT-2,-,92HT599,<0.003 µM
CC(=O)N1CCC(C(=O)N(CCCN2CCC(Cc3ccc(C(N)=O)cc3)CC2)c2ccc(C)c(Cl)c2)CC1,-,CEMx174 5.25 M7,-,89BZ167,>300 µM
O=S(=O)(c1cccc2cnccc12)N1CCNCC1,-,MOLT-4/IIIB + MOLT-4,-,IIIB,>13.7 µg/mL

5 of the rows above, restated:

smiles	setting	cells	changes	strain or isolate	value
Cc1ccc(C(=O)NC(C)(C)C(=O)NC[C@H](O)[C@@]23CC[C@]4(C)[C@H](CC[C@@H]5[C@@]6(C)CC[C@H](OC(=O)[C@H]7C[C@@H](C(=O)O)C7(C)C)C(C)(C)[C@@H]6CC[C@]54C)C2=C(C(C)C)C(=O)C3)cn1	-	MT-2	-	92HT599	<1 µM
CCCCCCCCCCCCCCCCCCOCCOP(=O)(O)CO[C@H](CO)Cn1cnc2c(N)nc(N)nc21	-	PBMC	M41L T69SS L74V M184V L210W	NRTI-MDR	0.008 µM
COc1cc2c(OC3OC(C)C(OC4OC(CO)C(O)C(O)C4O)C(O)C3OC(C)=O)c3c(c(-c4ccc5c(c4)OCO5)c2cc1OC)C(=O)OC3	-	PBMC	-	BaL	0.015 µM
COc1ccc(C(=O)NCC[C@@]23CC[C@]4(C)[C@H](CC[C@@H]5[C@@]6(C)CC[C@H](OC(=O)[C@H]7C[C@@H](C(=O)O)C7(C)C)C(C)(C)[C@@H]6CC[C@]54C)C2=C(C(C)C)C(=O)C3)cc1	-	MT-2	-	92HT599	<1 µM
O=S(=O)([O-])OC[C@@H]1C[C@H](O)[C@@H](OS(=O)(=O)[O-])[C@H](O[C@H]2[C@H](O)[C@@H](O)[C@H](O[C@@H]3OC[C@@H](O[C@H]4[C@@H](OS(=O)(=O)[O-])[C@@H](OS(=O)(=O)[O-])[C@H](O)O[C@@H]4CO)[C@H](O)[C@H]3O)O[C@@H]2CO)O1	clinical isolate, multidrug-resistant	PBMC	-	Clinical isolate	1.61 µg/mL